Patent publication US11168092B2 (priority 2019, dated 2021)

Tests used:
[1] = test system: ovarian cancer cells (SK-OV-3); test: SRB bioassay, cytotoxicity on ovarian cancer cells; type: cell-based; set-up: unit not given here; conditions: 72 hours
[2] = test system: colorectal cancer cells (HCT15); test: SRB bioassay, cytotoxicity on colorectal cancer cells; type: cell-based; set-up: unit not given here; conditions: 72 hours
[3] = test system: skin cancer cells (SK-MEL-2); test: SRB bioassay, cytotoxicity on skin cancer cells; type: cell-based; set-up: unit not given here; conditions: 72 hours
[4] = test system: lung cancer cells (A549); test: SRB bioassay, cytotoxicity on lung cancer cells; type: cell-based; set-up: unit not given here; conditions: 72 hours
[5] = test system: lung cancer cells (A549), ovarian cancer cells (SK-OV-3), skin cancer cells (SK-MEL-2), and colorectal cancer cells (HCT15); conditions: read-out: IC50 value, over lung
[6] = SK-OV-3, concentration 0.0001 (mM)
[7] = SK-OV-3, concentration 0.001 (mM)
[8] = SK-OV-3, concentration 0.01 (mM)
[9] = SK-OV-3, concentration 0.1 (mM)
[10] = SK-OV-3, concentration 1.0 (mM)
[11] = SK-OV-3, concentration 10.0 (mM)
[12] = HCT15, concentration 0.0001 (mM)
[13] = HCT15, concentration 0.001 (mM)
[14] = SK-MEL-2, concentration 0.0001 (mM)
[15] = SK-MEL-2, concentration 0.001 (mM)
[16] = SK-MEL-2, concentration 0.01 (mM)
[17] = SK-MEL-2, concentration 0.1 (mM)
[18] = SK-MEL-2, concentration 1.0 (mM)
[19] = SK-MEL-2, concentration 10.0 (mM)

Compound	Anticancer activity (value at given concentration) [1, 6]	Anticancer activity (value at given concentration) [1, 7]	Anticancer activity (value at given concentration) [1, 8]	Anticancer activity (value at given concentration) [1, 9]	Anticancer activity (value at given concentration) [1, 10]	Anticancer activity (value at given concentration) [1, 11]	Anticancer activity (value at given concentration) [2, 12]	Anticancer activity (value at given concentration) [2, 13]	Anticancer activity (value at given concentration) ([2]; HCT15, concentration 0.01 (mM))	Anticancer activity (value at given concentration) ([2]; HCT15, concentration 0.1 (mM))	Anticancer activity (value at given concentration) ([2]; HCT15, concentration 1.0 (mM))	Anticancer activity (value at given concentration) ([2]; HCT15, concentration 10.0 (mM))	Anticancer activity (value at given concentration) [3, 14]	Anticancer activity (value at given concentration) [3, 15]	Anticancer activity (value at given concentration) [3, 16]	Anticancer activity (value at given concentration) [3, 17]	Anticancer activity (value at given concentration) [3, 18]	Anticancer activity (value at given concentration) [3, 19]	other results
CC1=C[C@H]2O[C@@H]3C[C@@H](OC(=O)/C=C\C=C\C(OCCC4=CC(=O)OC4)C(C)O)[C@](C)([C@@]2(CO)CC1)[C@]31CO1 (stereo partly shown)	93.40	96.29	99.67	99.82	102.24	96.88													
CC1=C[C@H]2O[C@@H]3C[C@@H](OC(=O)/C=C\C=C\C4([C@H](C)O)OCC/C(=C\C(=O)O)[C@@H]4O)[C@](C)([C@@]2(CO)CC1)[C@]31CO1 (stereo partly shown)	98.81	98.43	102.58	100.26	98.79	18.74													
CC1=C[C@H]2O[C@@H]3C[C@H]4OC(=O)/C=C\C=C\[C@]5([C@H](C)O)OCC/C(=C\C(=O)OC[C@@]2(CC1)[C@]4(C)[C@]31CO1)[C@H]5O	102.85	97.87	105.06	104.50	101.23	2.60	102.08	105.12	102.77	105.17	103.82	−63.17	92.12	92.10	101.18	104.75	103.54	17.51	
COC(=O)/C=C/C=C/[C@@H](OCC/C(C)=C/C(=O)OC[C@]12CCC(C)=C[C@H]1O[C@@H]1C[C@@H](O)[C@@]2(C)[C@]12CO2)[C@@H](C)O	94.45	100.12	99.81	102.80	102.54	96.28													
(1R,2′S,4Z,6E,8R,12E,16aR,20aR,22R,23aS)-8-((R)-1-hydroxyethyl)-12,19,23a-trimethyl-1,10,11,17,18,20a,22,23a-octahydrospiro[1,22-methano[1,6,12]trioxacyclooctadecino[3,4-d]chromene-23,2′-oxirane]-3,14(8H,16H)-dione	−82.51	−81.43	−90.31	−90.85	−45.23	−36.89	−65.65	−52.68	−65.82	−71.83	−67.64	−49.09	−54.78	−56.49	−65.28	−80.17	−59.12	−32.08	Anticancer activity (value at given concentration) ([4]; A549, concentration 0.0001 (mM)): −22.72; Anticancer activity (value at given concentration) ([4]; A549, concentration 0.001 (mM)): −16.42; Anticancer activity (value at given concentration) ([4]; A549, concentration 0.01 (mM)): −10.11; Anticancer activity (value at given concentration) ([4]; A549, concentration 0.1 (mM)): −56.45; Anticancer activity (value at given concentration) ([4]; A549, concentration 1.0 (mM)): −34.39; Anticancer activity (value at given concentration) ([4]; A549, concentration 10.0 (mM)): −64.60; IC50 [5]: < 0.1 nM
(2Z,4E)-(2R,2′S,4R,5S,5aR,9aR)-5a-((((E)-5-hydroxy-3-methylpent-2-enoyl)oxy)methyl)-5,8-dimethyl-2,3,4,5,5a,6,7,9a-octahydrospiro[2,5-methanobenzo[b]oxepine-10,2′-oxiran]-4-yl-7-hydroxy-6-(2-(5-oxo-2,5-dihydrofuran-3-yl)ethoxy)octa-2,4-dienoate	87.46	82.77	34.41	−63.80	−73.49	−69.86	102.53	97.10	17.31	−68.64	−68.53	−65.16	96.64	98.23	84.56	36.36	−39.83	−53.70	
